The target of this assay is WT HIV-1 PR (NL4-3) (Human immunodeficiency virus type 1 group M subtype B, UniProt P12497). Briefly: biochemical. As to the method: In vitro transcription and cell-free protein synthesis were performed using WEPRO7240 wheat germ extract (CellFree Sciences, Yokohama, Japan). Transcription was performed using SP6 RNA polymerase, as described previously ([Matsunaga et al., 2014]). The translation reaction was performed in bilayer mode with slight modifications. Briefly, translation mixture (forming the bottom layer) consisted of 10 μl of each mRNA (usually 30–35 μg), 10 μl of WEPRO7240 (CellFree Sciences, Yokohama, Japan), and 0.8 μl of 1 μg/μl creatine kinase (Roche Diagnostics K. K., Tokyo, Japan) in 20.8 μl of SUB-AMIX® (CellFree Sciences, Yokohama, Japan). […] In actual drug susceptibility testing, quantitations of synthesized HIV-1 PR proteins were performed by densitometric scanning of Coomassie Brilliant Blue (CBB)-stained bands as compared with purified HIV-1 PR or bovine serum albumin (BSA) ([Madin et al., 2000]).
CFDSA was performed using cell-free–synthesized PR, substrate peptide, and the AlphaScreen® system (PerkinElmer, Boston, MA, USA). […] Luminescence signals were analyzed with the AlphaScreen detection program using the EnSpire software (PerkinElmer), and light intensities in the presence of the serially diluted inhibitors were used to calculate their IC50 values. PI-resistance levels were determined by comparing the IC50 values of drug-resistant PR with those of NL4-3 PR. […]

By IC50 is commonly meant the concentration at which inhibition is half-maximal. Read a low IC50 as greater potency. For the molecule `Cc1cccc(C)c1OCC(=O)N[C@@H](Cc1ccccc1)[C@@H](O)C[C@H](Cc1ccccc1)NC(=O)[C@H](C(C)C)N1CCCNC1=O` [LPV, lopinavir], the IC50 worked out at 1.1 nM.

The values are drawn from publication PMC4628118 (Frontiers in Microbiology, 2015).
